In US20050171215A1, “Germicidal compositions containing halogenated phthalaldehyes, and methods of using such compositions for disinfection or sterilization” (Ethicon, Inc., priority 2004, published 2005):

Assay: staining test on pigskin
Design: species or system pig; key to Staining: +: tends to stain certain surfaces; −: do not stain
Details: for Staining: summary Table 14; for Staining Results: about 10 μL on pigskin, about 24 hours, room temperature

Structure (SMILES)	Staining	Staining Results (0.14%)	Staining Results (0.20%)
O=Cc1ccc(C=O)cc1 [TPA, terephthalaldehyde, reference compound]	−		
O=Cc1ccccc1C=O [OPA, phthalaldehyde, reference compound]	+	Dark Staining	
O=Cc1cccc(C=O)c1 [IPA, isophthalaldehyde, reference compound]	−		Non-Staining
